In patent publication US6555523B1, “Use of cirsiliol and derivatives to treat infections” (priority 1999, dated 2003):

Tested on: parainfluenza HA-1
Test: CPE-inhibition (microscopic) assay, Protocol A2
Type: cell-based, parainfluenza virus
Details: ratio CC50 / IC50

O=c1oc2ccccc2cc1-c1ccc(Br)cc1 [3-(4′-Bromophenyl) coumarin, 3-(4′-bromophenyl) coumarin]
TI: 16

COc1cc2oc(-c3ccc(O)c(O)c3)cc(=O)c2c(O)c1OC [Cirsiliol, 6,7′-dimethoxy-5,3′,4′-trihydroxyflavone]
TI: 1.6

C[C@@H]1O[C@@H](O[C@H]2[C@H](Oc3cc(O)c4c(c3)O[C@H](c3ccc(O)cc3)CC4=O)O[C@H](CO)[C@@H](O)[C@@H]2O)[C@H](O)[C@H](O)[C@H]1O [Naringin, 7-neohesperidoside, 5, 4′ dihydroxyflavanone]
TI: 4.0
